Results of unrelated studies side by side (data: NIAID ChemDB).

Common to all: growth or infection tests; agent: Mycobacterium tuberculosis

MIC bound comes from a single tested concentration. Percent inhibition refers to the dose given; in toxicity tests it is the harm to the cells. ECn: concentration that inhibits the pathogen or its effect by n%. Blank or dashed fields: not listed here. Conditions beyond the fields shown may differ between rows. MIC50, MIC90 and the like: level of inhibition, or share of isolates inhibited.

SMILES	setting	tested at	read by	strain	endpoint	result
CCCCCCSc1nc(Cl)nc2nc[nH]c12				H37Ra	MIC	>12.8 µg/mL
Cc1ccc(NC(=S)NC=C(C(N)=O)C(N)=O)c(C)c1			resazurin	H37Rv	MIC bound	>6.25 µg/mL
C[C@H]1COc2c(N3CCN(C)CC3)c(F)cc3c(=O)c(C(=O)O)cn1c23				3R	MIC	0.5 µg/mL
CC(CNCCc1ccccc1F)NC[C@@H]1CC[C@H]2C[C@@H]1C2(C)C					MIC	25 µM
O=c1oc2cccc(O)c2s1			BACTEC	H37Rv	MIC bound	>12.5 µg/mL
Nc1ccccn1				H37Rv	MIC	>100 µg/mL
COc1cc2c(cc1OC)-c1cc3ccc(OC)c(OC)c3c[n+]1CC2		12.5 µg/mL	BACTEC	H37Rv	inhibition	25%
CC(=O)Nc1cccc(/C=C/C(=O)c2ccccc2O)c1		12.5 µg/mL		H37Rv	inhibition	0%
Fc1ccccc1CCNCCNCCC(c1ccccc1)c1ccccc1					MIC	50 µM
O=C1C[C@@H](c2ccc(O)c(O)c2)Oc2c1c(O)cc(O)c2[C@H]1C(=O)c2c(O)cc(O)cc2O[C@@H]1c1ccc(O)cc1				H37Rv	EC50	>12.5 µg/mL
Fc1ccccc1CNCCNCCc1ccc(Cl)cc1Cl					MIC	50 µM
CC(C)c1ccc2c(c1)CC[C@H]1[C@](C)(CNCCNCC3CCCO3)CCC[C@]21C					MIC	25 µM
CCCCCCCCCCCCCCCCNC(=S)N/N=C/c1ccc(NC(C)=O)cc1			BACTEC	H37Rv	MIC	12.5 µg/mL
CC(CNC[C@@H]1CC[C@H]2C[C@@H]1C2(C)C)NC[C@@H]1CC[C@H]2C[C@@H]1C2(C)C					MIC	6.25 µM
O=C1C=C(S(=O)(=O)O)c2ccccc2C1=O				H37Rv	MIC	100 µg/mL
CC[C@H]1OC(=O)[C@H](C)[C@@H](O[C@H]2C[C@@](C)(OC)[C@@H](O)[C@H](C)O2)[C@H](C)[C@@H](O[C@@H]2O[C@H](C)C[C@H](N(C)C)[C@H]2O)[C@](C)(OC)C[C@@H](C)C(=O)[C@H](C)[C@@H](O)[C@]1(C)O				H37Rv	MBC	>8 µg/mL
CC(C)N(C(=S)SSC(=S)N(C(C)C)C(C)C)C(C)C				H37Rv	MIC	>100 µg/mL
O=c1oc2ccc(Br)cc2c(=S)n1-c1ccc(F)cc1	21 d			My 331/88	MIC	2 µM
COc1cccc(NC(=S)Nc2ccccc2)c1				H37Rv	MIC	50 µg/mL
O=S(=O)([O-])c1cc(Cl)cc(Cc2cc(Cl)cc(S(=O)(=O)[O-])c2O)c1O.[Na+].[Na+]			BACTEC	H37Rv	MIC bound	>12.5 µg/mL
CO[C@H]1/C=C/O[C@@]2(C)Oc3c(C)c(O)c4c(O)c(c(/C=N/N5CCN(C6CCCC6)CC5)c(O)c4c3C2=O)NC(=O)/C(C)=C\C=C\[C@H](C)[C@H](O)[C@@H](C)[C@@H](O)[C@@H](C)[C@H](OC(C)=O)[C@@H]1C				Isolate 880902 rifampicin-resistant	MIC	>32 µg/mL
NC1CCN(c2nc3c(cc2F)c(=O)c(C(=O)O)cn3-c2ccc(F)cc2F)C1				ATCC 35830	MIC	4 µg/mL
CO[C@H]1/C=C/O[C@@]2(C)Oc3c(C)c(O)c4c(c3C2=O)C2=NC(C)(C)N(c3ccccc3)C2=C(NC(=O)/C(C)=C\C=C\[C@H](C)[C@H](O)[C@@H](C)[C@@H](O)[C@@H](C)[C@H](OC(C)=O)[C@@H]1C)C4=O			resazurin	H37Rv	MIC	≤0.1 µg/mL
COc1ccc(CSc2ccccn2)cc1				H37Ra	MIC	>12.8 µg/mL
CC1(C)[C@@H]2CC[C@@]1(C)[C@@H](NCCNC1CCCCCCC1)C2					MIC	12.5 µM
COc1ccc(NC(=O)c2cc([N+](=O)[O-])ccc2OC)cc1NC(=O)CC(=O)c1ccccc1OC				H37Rv	MIC	>100 µg/mL
NC(=S)N=Nc1c(O)cc(O)c2[nH]c(=O)ccc12		12.5 µg/mL	BACTEC	H37Rv	inhibition	8%
O=C(/C=C/c1ccc(I)cc1)c1ccccc1O					EC50	>12.5 µg/mL
C/C(CC/C(C)=N/N=C(\N)c1ccccn1)=N\N=C(/N)c1ccccn1			BACTEC	H37Rv	MIC bound	>12.5 µg/mL
O=C1CC(c2cccc(Br)c2)Oc2ccccc21				H37Rv	EC50	<12.5 µg/mL
COc1ccccc1CSc1ccncc1				H37Ra	MIC	>12.8 µg/mL
C=CCC(CCCCCCCCC)C(=O)O				H37Rv	MIC	>100 µg/mL
CC1(C)OC(=O)N(Cc2ccccc2)C1=O			BACTEC	H37Rv	MIC bound	>12.5 µg/mL
CC(=O)NC[C@H]1CN(c2ccc(N3CCOCC3)c(F)c2)C(=O)O1				1R	MIC	0.5 µg/mL
CCN(CC)Cc1cc(Nc2cc(Cl)c3ccc(N(C)C)cc3n2)ccc1O.Cl.Cl.Cl			BACTEC	H37Rv	MIC bound	≤12.5 µg/mL
COc1cccc(Sc2nc(Cl)nc3nc[nH]c23)c1				H37Ra	MIC	>12.8 µg/mL
CO[C@H]1/C=C/O[C@@]2(C)Oc3c(C)c(O)c4c(=O)c(c5oc6cc(N7CCN(CC(C)C)CC7)cc(=O)c6nc5c4c3=C2O)NC(=O)/C(C)=C\C=C\[C@H](C)[C@H](O)[C@@H](C)[C@@H](O)[C@@H](C)[C@H](OC(C)=O)[C@@H]1C				29 (rifampin-resistant)	MBC	0.025 µg/mL
CCOC(=O)Nc1cc(NC(C)C(=O)COc2ccccc2)c([N+](=O)[O-])c(N)n1				H37Rv	EC50	>12.5 µg/mL
CC(CNCCC(c1ccccc1)c1ccccc1)NC1CCCC(C)C1C					MIC	50 µM
CCOC(=O)Nc1cc(NC(C)C(=O)Cc2ccccc2)c([N+](=O)[O-])c(N)n1				H37Rv	EC50	>12.5 µg/mL
C=C1C(=O)C2=CC1CCC(=O)C1(C)CCC(OC(C)=O)C(C)(C)C1CC2O		12.5 µg/mL	BACTEC	H37Rv	inhibition	37%
Clc1ccc(Cl)s1				H37Rv	MIC	50 µg/mL
CCOC(=O)Nc1cc2nc(C)c(-c3ccccc3)nc2c(N)n1				H37Rv	EC50	>12.5 µg/mL
C=C(CC(=O)Nc1nc(C)c(C(=O)OC)s1)C(=O)O			resazurin	H37Rv	MIC bound	>6.25 µg/mL
S=c1oc2ccc(Br)cc2c(=S)n1-c1ccc(Br)cc1	21 d			My 331/88	MIC	2 µM
Cc1cn(CCCOc2c3occc3cc3ccc(=O)oc23)c(=O)[nH]c1=O				H37Rv	MIC	>100 µg/mL
Cc1ccc2oc(=S)n(-c3ccc(C(F)(F)F)cc3)c(=S)c2c1	14 d			My 331/88	MIC	4 µM
CC(=O)Oc1ccc([C@H]2Oc3cc(OC(C)=O)cc(OC(C)=O)c3C(=O)[C@@H]2c2c(OC(C)=O)cc(OC(C)=O)c3c(=O)cc(-c4ccc(OC(C)=O)c(OC(C)=O)c4)oc23)cc1				H37Rv	EC50	>12.5 µg/mL
O=C(Nc1cnc2c(Cl)cc(NC(=O)OCc3ccccc3)nc2n1)OCc1ccccc1				H37Rv	EC50	>12.5 µg/mL
O=C(O)C(CCC1CCCCC1)C(=O)O				H37Rv	MIC	3.12 µg/mL
COc1ccc2oc(=O)n(-c3ccc(Cl)c(Cl)c3)c(=S)c2c1	21 d			My 331/88	MIC	32 µM
CN[C@@H]1[C@H](O[C@H]2[C@H](O[C@H]3[C@H](O)[C@@H](O)[C@H](N=C(N)N)[C@@H](O)[C@@H]3N=C(N)N)O[C@@H](C)[C@]2(O)C=O)O[C@@H](CO)[C@H](O)[C@H]1O				TN2793	MIC	>2 µg/mL
O=C1CC(N2C(=O)c3ccccc3C2=O)C(=O)N1			BACTEC	H37Rv	MIC bound	>12.5 µg/mL
C[C@H]1COc2c(N3CCN(C)CC3)c(F)cc3c(=O)c(C(=O)O)cn1c23				ATCC 35823	MBC	0.5 µg/mL
OCCN(CCO)c1ccccc1				H37Rv	MIC	>100 µg/mL
CCCCC(=O)Oc1ccc(C2=Nc3c(cc(NC(=O)OCC)nc3N)N[C@H]2C)cc1		12.5 µg/mL		H37Rv	inhibition	10%
Cc1ccc(C(=O)c2ccccc2C(=O)O)c(O)c1				H37Rv	MIC	>100 µg/mL
O=[N+]([O-])c1cc2ncccc2c2ncccc12				TAC-R	MIC	12.5 µg/mL
O=C1CC(c2ccccc2)Oc2cc(Br)ccc21		12.5 µg/mL			inhibition	15%
CO[C@H]1/C=C/O[C@@]2(C)Oc3c(C)c(O)c4c(O)c(c(/C=N/N5CCN(C)CC5)c(O)c4c3C2=O)NC(=O)/C(C)=C\C=C\[C@H](C)[C@H](O)[C@@H](C)[C@@H](O)[C@@H](C)[C@H](OC(C)=O)[C@@H]1C				TN657	MIC	1 µg/mL
Nc1cccc2c(Br)cncc12				H37Rv	MIC	100 µg/mL
CN1CCN(C(=S)S)CC1			resazurin	H37Rv	MIC	>6.25 µg/mL
COc1ccccc1CCNCCN[C@@H]1C[C@@H]2C[C@H]([C@H]1C)C2(C)C					MIC	25 µM
O=S(=O)([O-])c1ccc(N/N=C/c2ccc(/C=N/Nc3ccc(S(=O)(=O)[O-])cc3)cc2)cc1.[Na+].[Na+]				H37Rv	MIC	>100 µg/mL
CCCCC(CC)CN1CN(CC(CC)CCCC)CC(C)(NCCNC/C=C(\C)CCC=C(C)C)C1					MIC	50 µM
Cc1ccc(CNCCNCc2ccc(F)cc2)cc1					MIC	50 µM
Cc1ccc(C)c(CSc2nc(=O)[nH]c3nc[nH]c23)c1				H37Ra	MIC	>12.8 µg/mL
O=c1[nH]c2cc(Cl)ccc2nc1/C=C(O)/C=C/c1ccccc1		6.25 µg/mL	resazurin	H37Rv	inhibition	16%
NC(=O)c1cnccn1				Isolate 10003 monodrug-resistant	MIC	>300 µg/mL
CN(CC(O)C(O)CN(C)C(=S)[S-])C(=S)[S-].[K+].[K+]			BACTEC	H37Rv	MIC	≥12.5 µg/mL
COc1ccc(CNCCNCCCCc2ccccc2)c(OC)c1					MIC	50 µM
COc1ccccc1C(=O)CC(=O)Nc1cccc(NC(=O)C(C)Oc2ccc(C(C)(C)C)cc2)c1				H37Rv	MIC	50 µg/mL
Cc1cc2c(=O)cc(-c3ccccc3Cl)oc2c(C(=O)O)c1C			BACTEC	H37Rv	MIC bound	>12.5 µg/mL
CC(C)N=c1cc2n(-c3ccc(Cl)cc3)c3ccccc3nc-2cc1Nc1ccc(Cl)cc1			broth dilution / resazurin	MDR15	MIC	4 µg/mL
COc1ccc(/C=C/C(=O)c2cc(I)ccc2O)cc1					EC50	>12.5 µg/mL
C[C@H]1C[C@H](N)CN1c1cc2c(cc1F)c(=O)c(C(=O)O)cn2-c1ccc(F)cc1F				DRUG-SUS	MIC50	2 µg/mL
Nc1ccc(C(=O)Nc2ccccc2)c(O)c1				H37Rv	MIC	25 µg/mL
COc1ccc(CNCCNCCNc2ccccc2)c(OC)c1					MIC	50 µM
Cl.Nc1ccc(O)c(C(=O)O)c1				H37Rv	MIC	>100 µg/mL
CC(=O)N/N=C/c1ccc([N+](=O)[O-])o1			BACTEC	H37Rv	MIC bound	>12.5 µg/mL
O=C(O)COc1ccc([As](=O)(O)O)cc1				H37Rv	MIC	>100 µg/mL
CC(C)=CCC/C(C)=C/CNCCNC1C2CC3CC(C2)CC1C3					MIC	9.4 µM
CC(=O)OCc1cccc2ccccc12				H37Rv	MIC	>100 µg/mL
Clc1nc(Sc2ccccc2Cl)c2[nH]cnc2n1				H37Rv	MIC90	>6.25 µg/mL
CO[C@H]1/C=C/O[C@@]2(C)Oc3c(C)c(O)c4c(O)c(c(/C=N/N5CCN(C/C=C/c6ccccc6)CC5)c(O)c4c3C2=O)NC(=O)/C(C)=C\C=C\[C@H](C)[C@H](O)[C@@H](C)[C@@H](O)[C@@H](C)[C@H](OC(C)=O)[C@@H]1C				31 (rifampin-resistant)	MIC	0.2 µg/mL
COc1cc(OC)c2c(c1)OC(c1cc(OC)c(OC)c(OC)c1)CC2=O				H37Rv	EC50	>12.5 µg/mL
COc1cc(C(=O)NCC(=O)NN=C(C)C)cc(OC)c1OC			BACTEC	H37Rv	MIC	≥12.5 µg/mL
O=C1O[C@H](CO)[C@@H](O)[C@H](O)[C@H]1O				H37Rv	MIC	>100 µg/mL